Here are results for one compound from patent publication US5670155A.

Structures are written as SMILES.

One assay has as its target gp120 (Human immunodeficiency virus type 1 group M subtype B, UniProt P03375). The settings on record: tested form: TFA.
For assay [1], the system named is Sup T1 target cells with H9/IIIB infected cells. In words: Inhibition of syncytium formation. The settings on record: 3 day incubation; compared with soluble CD4 and CD4 hexapeptide residues 40-45, FIG. 6; tested form: TFA. On the procedure:
Sup T1 cells (see Weiner et al., Pathobiology: 4:1-20 (1991)) were used as target cells for infection. Dilutions (1:2) of soluble CD4, CD4 mimetic, or CD4 peptide were made in 96 well plates in RPMI 1640 media containing 10% fetal calf serum. H9/IIIB infected cells were then plated at a density of approximately 10^4 cells per well. Sup T1 target cells were then added (5×10^5 per well) and syncytium formation was qualitatively and quantitatively determined after a 3 day incubation period. The results using soluble CD4, the reverse turn mimetic shown in FIG. 5, or the CD4 hexapeptide comprising residues 40-45 are shown in FIG. 6. The number of syncytia per well counted on visual inspection was plotted against the concentration of CD4, mimetic, or peptide added.

As for `CC(C)C[C@H](NC(=O)[C@H](Cc1ccccc1)N1NC(=O)[C@H]([C@@H](N)CO)CCC(=O)N[C@@H](CO)C1=O)C(=O)N[C@H](C(=O)NCc1ccccc1)C(C)O` (some centres unmarked), the IC50 (commonly the concentration at which inhibition is half-maximal) against gp120 stood at 800 nM. Moreover, the “Inhibition of syncytium formation” value in assay [1] was “superior inhibition of syncytium formation”.
